Tests used:
[1] = test system: S282T mut. 1b replicon; assay: microbe, parasite or virus in culture; settings: Hepatitis C virus
[2] = biological target: HCV 1b NS5B polymerase, S282T (Hepatitis C virus genotype 1b, UniProt Q9WMX2, S2701T); assay: biochemical

The chains behind the UniProt entries cited, without tags or fusion partners. Residues count along the entry.
UniProt Q9WMX2, 2420-3010 S2701T: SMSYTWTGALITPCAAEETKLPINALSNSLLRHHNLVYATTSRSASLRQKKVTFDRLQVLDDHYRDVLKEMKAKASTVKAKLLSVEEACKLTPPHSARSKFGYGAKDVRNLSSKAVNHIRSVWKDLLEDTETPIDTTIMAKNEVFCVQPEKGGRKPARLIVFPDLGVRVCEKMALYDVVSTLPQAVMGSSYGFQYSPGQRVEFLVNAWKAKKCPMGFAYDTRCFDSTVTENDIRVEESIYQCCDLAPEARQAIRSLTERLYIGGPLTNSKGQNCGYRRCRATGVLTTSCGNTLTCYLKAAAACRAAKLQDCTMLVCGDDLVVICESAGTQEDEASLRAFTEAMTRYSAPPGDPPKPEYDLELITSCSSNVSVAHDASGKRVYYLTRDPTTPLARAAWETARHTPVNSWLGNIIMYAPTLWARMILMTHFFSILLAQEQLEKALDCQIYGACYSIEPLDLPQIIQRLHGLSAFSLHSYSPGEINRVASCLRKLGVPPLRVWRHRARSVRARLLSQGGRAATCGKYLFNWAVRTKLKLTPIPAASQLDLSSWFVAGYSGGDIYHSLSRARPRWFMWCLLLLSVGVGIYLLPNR

| Compound | EC90 [1] | IC50 ([2]; batch 1) | IC50 ([2]; batch 2) |
| --- | --- | --- | --- |
| C[C@@]1(F)[C@H](O)[C@@H](CO)O[C@H]1n1ccc(N)nc1=O | 30.7 ± 11.7 µM |  |  |
| C[C@@]1(F)[C@H](O)[C@@H](COP(=O)(O)OP(=O)(O)OP(=O)(O)O)O[C@H]1n1ccc(N)nc1=O |  | 2 µM | 8.3 ± 2.4 µM |
| C[C@@]1(O)[C@H](O)[C@@H](CO)O[C@H]1n1cnc2c(N)ncnc21 [2′-C-methyladenosine] | > 100 µM |  |  |
| C[C@@]1(O)[C@H](O)[C@@H](CO)O[C@H]1n1ccc(N)nc1=O [2′-C-methylcytidine] | 37.4 ± 12.1 µM |  |  |

From patent US10287311B2, “Modified fluorinated nucleoside analogues” (priority 2003, dated 2019)
